Anti-infective test results gathered from many reports (values: NIAID ChemDB through PubChem).

Common to all: tests in culture; agent: HIV-1; read-out: EC50

ECn is the concentration giving n% inhibition of infection, replication or growth. An empty or dashed field is not shown. Rows are shuffled and stem from different studies.

structure	changes	read by	cells	setting	strain or isolate	result
Cc1nc(C)c(CNCC[C@@]23CC[C@]4(C)[C@H](CC[C@@H]5[C@@]6(C)CC[C@H](OC(=O)[C@H]7C[C@@H](C(=O)O)C7(C)C)C(C)(C)[C@@H]6CC[C@]54C)C2=C(C(C)C)C(=O)C3)s1	-	p24 / ELISA	MT-2	-	92HT599	<1 µM
CCCCOC(=O)[C@H](C)NP(=O)(CO[C@H](C)Cn1cnc2c(N)ncnc21)NC[C@H](C)C(=O)OC(C)C	-	fluorescence	MT4-GFP	50% human serum	-	146 µM
CCCCCCCCCCCCCCCC(=O)OCC(COP(=O)(O)OCCNC(=O)CCC(=O)N[C@H](Cc1ccccc1)C(=O)N[C@H](Cc1cccc2ccccc12)C(=O)N1CCC(C(=O)O[C@@H](CC(C)C)C(=O)N[C@H](C(N)=O)C(C)C)CC1)OC(=O)CCCCCCCCCCCCCCC	-	plaque count	HT4 + HT4-6C	-	BRU	15.3 µM
CCCCCCOC(=O)C(C)(C)NP(=O)(CO[C@H](C)Cn1cnc2c(N)ncnc21)N[C@H](CC(=O)OC(C)C)C(C)C	-	fluorescence	MT4-GFP	10% human serum	-	2.1 µM
CC(C)C1=C2[C@H]3CC[C@@H]4[C@@]5(C)CC[C@H](OC(=O)[C@H]6C[C@@H](C(=O)O)C6(C)C)C(C)(C)[C@@H]5CC[C@@]4(C)[C@]3(C)CC[C@@]2([C@@H](O)CNC2(c3ncc(Cl)cn3)CC2)CC1=O	-	p24 / ELISA	MT-2	-	92HT599	<1 µM
Nc1ccn([C@@H]2O[C@H](COP(=O)(O)O[C@@H]3[C@H](O)[C@@H](COP(=O)(O)O[C@@H]4[C@H](O)[C@@H](COP(=O)(O)O)O[C@H]4n4ccc(N)nc4=O)O[C@H]3n3ccc(N)nc3=O)[C@@H](O)[C@H]2O)c(=O)n1	-	cytopathic effect / neutral red	MT-2	-	-	30 µM
CC(C)COC(=O)N[C@H](Cc1ccccc1)C(=O)N[C@H](Cc1cccc2ccccc12)C(=O)N1CCC(C(=O)O[C@@H](CC(C)C)C(=O)N[C@H](C(N)=O)C(C)C)CC1	-	plaque count	HT4 + HT4-6C	-	BRU	14 µM
Nc1nc(Nc2ccc(Cl)cc2)nn1S(=O)(=O)c1cnn(-c2nccc(C(F)(F)F)n2)c1	-	luciferase / RT activity	TZM-bl	-	IIIB	0.2409 µM
CCCCCCCOC(=O)[C@@H](C)NP(=O)(CO[C@H](C)Cn1cnc2c(N)ncnc21)NC[C@H](C)C(=O)OC(C)C	-	fluorescence	MT4-GFP	10% human serum	-	2.2 µM
CCCCCCCCCCCCCCCC(=O)N(CCCCCCCCCCC(=O)O)CC(O)C(O)C(O[C@@H]1O[C@H](CO)[C@H](O)[C@H](O)[C@H]1O)C(O)CO	-	XTT / p24	PBMC	-	-	108 µM
CCc1ccccc1ONc1cc(S(=O)(=O)N(CC(C)C)C[C@@H](O)[C@H](Cc2ccccc2)NC(=O)O[C@H]2CO[C@H]3OCC[C@H]32)ccc1N	-	GFP	MT-4	-	IIIB WT	0.00457 µM
COCCOc1cc(Cl)ccc1C(=O)NC[C@H](O)[C@@]12CC[C@]3(C)[C@H](CC[C@@H]4[C@@]5(C)CC[C@H](OC(=O)[C@H]6C[C@@H](C(=O)O)C6(C)C)C(C)(C)[C@@H]5CC[C@]43C)C1=C(C(C)C)C(=O)C2	-	p24 / ELISA	MT-2	-	92HT599	<1 µM
CC(C)OC(=O)CCNP(=O)(CO[C@H](C)Cn1cnc2c(N)ncnc21)N[C@@H](C)C(=O)OC(C)C	-	fluorescence	MT4-GFP	10% human serum	-	26.4 µM
CC(C)CN(C[C@@H](O)[C@H](Cc1ccccc1)NC(=O)O[C@H]1CO[C@H]2OCC[C@H]21)S(=O)(=O)c1ccc(N)c(NCCN2CCCC2)c1	-	GFP	MT-4	-	IIIB WT	0.0692 µM
CC(C)C1=C2[C@H]3CC[C@@H]4[C@@]5(C)CC[C@H](OC(=O)[C@H]6C[C@@H](C(=O)O)C6(C)C)C(C)(C)[C@@H]5CC[C@@]4(C)[C@]3(C)CC[C@@]2([C@@H](O)CNCC(C)(C)NC(=O)c2ccc(S(C)(=O)=O)cc2)CC1=O	-	p24 / ELISA	MT-2	-	92HT599	<1 µM
CC(C)OC(=O)CCNP(=O)(CO[C@H](C)Cn1cnc2c(N)ncnc21)N[C@@H](C)C(=O)OC1CCC1	-	fluorescence	MT4-GFP	50% human serum	-	488.3 µM
C1CCC(NC2=NCCN2)CCCC(NC2=NCCN2)C1	-	entry / fluorescence	HEK 293	-	NL4-3	6.62 µM
CC(C)C1=C2[C@H]3CC[C@@H]4[C@@]5(C)CC[C@H](OC(=O)[C@H]6C[C@@H](C(=O)O)C6(C)C)C(C)(C)[C@@H]5CC[C@@]4(C)[C@]3(C)CC[C@@]2(CC(=O)NC[C@H](CO)NC(=O)c2ccc(Cl)cc2)CC1=O	-	p24 / ELISA	MT-2	-	92HT599	<1 µM
N#CCc1ccc(Nc2nc(N)n(S(=O)(=O)c3cccc4ccc(CC#N)cc34)n2)cc1	Y181C/K103N	luciferase / RT activity	TZM-bl	-	IIIB	0.238 µM
CC(C)CN(C[C@@H](O)[C@H](Cc1ccccc1)NC(=O)O[C@H]1CO[C@H]2OCC[C@H]21)S(=O)(=O)c1ccc(N)c(N(C)C)c1	-	GFP	MT-4	-	IIIB WT	0.0182 µM
C[C@H]1[C@H](O)[C@@H](C)/C=C/C=C/C=C/C=C/C=C/C=C/C=C/[C@H](O[C@@H]2O[C@H](C)[C@@H](O)[C@H](N)[C@@H]2O)C[C@@H]2O[C@](O)(C[C@@H](O)C[C@@H](O)CC[C@H](O)[C@@H](O)C[C@@H](O)CC(=O)O[C@H]1C)C[C@H](O)[C@H]2C(=O)O	-	p24 / RT activity	PBMC	-	92UG001 CLADE D X4/X5 (SI)	1.7 µM
CC(C)C1=C2[C@H]3CC[C@@H]4[C@@]5(C)CC[C@H](OC(=O)[C@H]6C[C@@H](C(=O)O)C6(C)C)C(C)(C)[C@@H]5CC[C@@]4(C)[C@]3(C)CC[C@@]2(CC(=O)N[C@@H](CNC(=O)c2ccc(Cl)cc2)C(C)O)CC1=O	-	p24 / ELISA	MT-2	-	92HT599	<1 µM
Nc1ccn([C@@H]2O[C@H](COP(=O)(O)O[C@@H]3[C@H](O)[C@@H](COP(=O)(O)O[C@@H]4[C@H](O)[C@@H](COP(=O)(O)O[C@@H]5[C@H](O)[C@@H](COP(=O)(O)O)O[C@H]5n5ccc(N)nc5=O)O[C@H]4n4ccc(N)nc4=O)O[C@H]3n3ccc(N)nc3=O)[C@@H](O)[C@H]2O)c(=O)n1	-	cytopathic effect / neutral red	MT-2	-	-	>25 µM
CCCCCOC(=O)[C@H](C)NP(=O)(CO[C@H](C)Cn1cnc2c(N)ncnc21)NC[C@H](C)C(=O)OC(C)C	-	fluorescence	MT4-GFP	50% human serum	-	18.6 µM
COC1CCN(CCNc2cc(S(=O)(=O)N(CC(C)C)C[C@@H](O)[C@H](Cc3ccccc3)NC(=O)O[C@H]3CO[C@H]4OCC[C@H]43)ccc2N)CC1	-	GFP	MT-4	-	IIIB WT	0.0603 µM
Nc1nc(Nc2ccc(Cl)cc2)nn1S(=O)(=O)c1cnn(-c2ccc(C(F)(F)F)cn2)c1	-	luciferase / RT activity	TZM-bl	-	IIIB	0.01446 µM
CCCn1cncc1CCNc1cc(S(=O)(=O)N(CC(C)C)C[C@@H](O)[C@H](Cc2ccccc2)NC(=O)O[C@H]2CO[C@H]3OCC[C@H]32)ccc1N	-	GFP	MT-4	-	IIIB WT	0.631 µM
C1CC(NC2=NCCN2)CCC(NC2=NCCN2)C1	-	entry / fluorescence	HEK 293	-	NL4-3	1.85 µM
CNc1cc(S(=O)(=O)N(CC(C)C)C[C@@H](O)[C@H](Cc2ccccc2)NC(=O)O[C@H]2CO[C@H]3OCC[C@H]32)ccc1N	-	GFP	MT-4	-	IIIB WT	0.0229 µM
CCCCCOC(=O)C(C)(C)NP(=O)(CO[C@H](C)Cn1cnc2c(N)ncnc21)N[C@@H](C)CC(=O)OC(C)C	-	fluorescence	MT4-GFP	50% human serum	-	116.3 µM

The last 4 rows once more:

structure	changes	read by	cells	setting	strain or isolate	result
CCCn1cncc1CCNc1cc(S(=O)(=O)N(CC(C)C)C[C@@H](O)[C@H](Cc2ccccc2)NC(=O)O[C@H]2CO[C@H]3OCC[C@H]32)ccc1N	-	GFP	MT-4	-	IIIB WT	0.631 µM
C1CC(NC2=NCCN2)CCC(NC2=NCCN2)C1	-	entry / fluorescence	HEK 293	-	NL4-3	1.85 µM
CNc1cc(S(=O)(=O)N(CC(C)C)C[C@@H](O)[C@H](Cc2ccccc2)NC(=O)O[C@H]2CO[C@H]3OCC[C@H]32)ccc1N	-	GFP	MT-4	-	IIIB WT	0.0229 µM
CCCCCOC(=O)C(C)(C)NP(=O)(CO[C@H](C)Cn1cnc2c(N)ncnc21)N[C@@H](C)CC(=O)OC(C)C	-	fluorescence	MT4-GFP	50% human serum	-	116.3 µM